Results of unrelated studies side by side (data: NIAID ChemDB).

Common to all: tests in culture; agent: Mycobacterium tuberculosis

Percent inhibition refers to the dose given; in toxicity tests it is the harm to the cells. An empty or dashed field is not shown. A number after MIC or MFC names an inhibition level or a share of isolates. MIC bound comes from a single tested concentration. ECn is the concentration giving n% inhibition of infection, replication or growth. Rows are shuffled and stem from different studies.

structure	tested at	strain	mutations	read-out	method	value
O=c1[nH]n2c(=O)cc[nH]c2c1-c1nnns1	12.5 µg/mL	H37Rv		inhibition	BACTEC	16%
O=C(NN=Cc1cccc(Br)c1)c1ccc(-n2cc(-c3ccccc3)nn2)cc1O		H37Rv		MIC	resazurin	1.56 µg/mL
N/C(=N\N=C\c1nc2ccccc2o1)c1ccccn1				MIC		>16 µg/mL
CO[C@H]1/C=C/O[C@@]2(C)Oc3c(C)c(O)c4c(O)c(c(/C=N/N5CCN(C)CC5)c(O)c4c3C2=O)NC(=O)/C(C)=C\C=C\[C@H](C)[C@H](O)[C@@H](C)[C@@H](O)[C@@H](C)[C@H](OC(C)=O)[C@@H]1C		H37Rv		MIC	resazurin	0.0075 µg/mL
O=C1OC(=O)c2c1nc1ccccc1c2-c1ccccc1	12.5 µg/mL	H37Rv		inhibition	BACTEC	-5%
CCO/N=C1\C(=O)N(CCOCCOCCOCCN2C(=O)/C(=N/OC)c3cc(F)ccc32)c2ccc(F)cc21		H37Rv		MIC	visual reading	64 µg/mL
O=C(Cc1csc2nc(-c3ccc(Br)cc3)cn12)NNC(=S)Nc1ccccc1		H37Rv		MIC		>6.25 µg/mL
Cc1cccc(NC(=O)CC(=O)N2N=C(N3c4ccccc4Sc4ccccc43)CC2c2ccccc2)c1	6.25 µg/mL	H37Rv		inhibition	resazurin	-9%
[Cl][Ru][Cl].c1ccc(-c2ccccn2)nc1.c1ccc([PH+](CCCC[PH+](c2ccccc2)c2ccccc2)c2ccccc2)cc1		H37Rv ATTC 27294		MIC90	broth dilution / resazurin	5.1 µM
NNC(=O)C(=O)N=Cc1ccc([N+](=O)[O-])o1		RMP-R		MIC		3.1 µg/mL
O=C(O)c1ccc[nH]c1=O		H37Rv ATTC 27294		MIC90	broth dilution / resazurin	>359.4 µM
CCn1c(-c2ccc(N=Nc3c(C)[nH]n(-c4ccccc4)c3=O)cc2)n[nH]c1=S	12.5 µg/mL	H37Rv		inhibition		73%
CC(C)=CCO[C@@H]1CC(C)(C)C[C@H]2C3=CC[C@@H]4[C@]56CCC(O)(OC5)C(C)(C)[C@@H]6CC[C@@]4(C)[C@]3(C)CC[C@@]12C(=O)O		H37Rv		MIC		73 µg/mL
COc1cccc2c1c[n+](C)c1c3cc4c(cc3ccc21)OCO4	12.5 µg/mL	H37Rv		inhibition	BACTEC	0%
C#CC#CC(=O)c1ccccc1C(=O)O		H37Ra		MIC		45 µg/mL
COc1c(O)ccc2c1c[n+](C)c1c3cc4c(cc3ccc21)OCO4		H37Rv		MIC	BACTEC	>12.5 µg/mL
CN(C)c1ccc(NC(=S)NNC(=O)c2ccccc2)cc1		INH resistant		MIC		4.96 µM
O=S1(=O)CC(N2CCCCC2)C2=C(O1)c1ccccc1N(c1ccccc1)C2		H37Rv		MIC bound	BACTEC	>12.5 µg/mL
NC1CON(CCCO)C1=O				MIC		>2500 µM
O=C(NNC(=S)Nc1ccc([N+](=O)[O-])cc1)c1ccncc1		WT		MIC		0.63 µM
CCO/N=C1/C(=O)N(CCOCCOCCOCCN2C(=O)C(=O)c3cc(F)ccc32)c2ccc(F)cc21			MDR	MIC	visual reading	128 µg/mL
O=[N+]([O-])c1cn2c(n1)OC[C@@H](OCc1ccc(OC(F)(F)F)cc1)C2		H37Rv		MIC		0.125 µg/mL
OCC(O)COCCCCCCCCCCCC1C=CCC1		H37Rv		MIC	BACTEC	0.8 µg/mL
CC1COc2c(C3(N)CC3)c(F)cc3c(=O)c(C(=O)O)cn1c23		25 strains		MIC50		1.56 µg/mL
C[C@H]1Cc2c(C(=O)O)ccc(O)c2C(=O)O1		H37Ra		MIC		>200 µg/mL
O=C(O)c1ncccc1O		H37Rv ATTC 27294		MIC90	broth dilution / resazurin	226.4 µM
O=C(Nc1ccc(Cl)cc1Cl)c1cc2nc3ccccc3c(=O)n2c2ccccc12		H37Rv		MIC bound	resazurin	>6.25 µg/mL
N/C(=N\N=C\c1ccccn1)c1cnccn1				MIC		>16 µg/mL
O=C(Cc1csc2nc(-c3ccc(Br)cc3)cn12)NNC(=S)Nc1ccc(Br)cc1		H37Rv		MIC		>6.25 µg/mL
C/C(=N\NC(=O)c1ccccc1O)c1c(O)cc(C)oc1=O	12.5 µg/mL	H37Rv		inhibition	BACTEC	4%
NNC(=O)c1ccncc1		H37Rv		MIC	resazurin	0.06 µg/mL
C=CCn1c(-c2ccc(N=Nc3c(C)[nH]n(CCO)c3=O)cc2)n[nH]c1=S	12.5 µg/mL	H37Rv		inhibition		4%
O=C(N=Nc1c(O)[nH]c2ccc(Cl)cc12)c1ccc(-n2cc(-c3ccccc3)nn2)cc1O		H37Rv		MIC	resazurin	3.12 µg/mL
Cc1[nH]n(-c2ccccc2)c(=O)c1N=Nc1ccc(C(=O)N/N=C/c2ccc(F)cc2)cc1	12.5 µg/mL	H37Rv		inhibition		25%
CCOC(=O)c1cc(C2CCN(Cc3ccccc3)C2=O)c(C(=O)C(=[N+]=[N-])C(C)=O)[nH]1	6.25 µg/mL	H37Rv		inhibition	resazurin	0%
Nc1ccc(C(=O)O)c(O)c1		H37Rv		MIC	resazurin	5 µg/mL
CCCNC(=S)NNC(=O)Cc1csc2nc(-c3ccc(Br)cc3)cn12		H37Rv		MIC		>6.25 µg/mL
CO[C@@]12[C@H](COC(N)=O)C3=C(C(=O)C(C)=C(N)C3=O)N1C[C@H]1[C@@H]2N1C(=O)C1N2C(=O)[C@@H](NC(=O)Cc3ccccc3)[C@H]2SC1(C)C		H37Rv		MIC	BACTEC	0.2 µg/mL
COc1cc2c(C)[n+](C)c3c4cc5c(cc4ccc3c2cc1OC)OCO5		H37Rv		MIC	BACTEC	<12.5 µg/mL
Cc1c(N)nc(C(CC(N)=O)NCC(N)C(N)=O)nc1C(=O)NC(C(=O)NC(C)C(O)CC(=O)NC(C(=O)NC(OC1OC(C)C(N)C(O)C1O)C(O)c1nc(-c2nc(C(=O)NCCC[S+](C)C)cs2)cs1)C(C)O)C(OC1OC(CO)C(O)C(O)C1OC1OC(CO)C(O)C(OC(N)=O)C1O)c1cnc[nH]1.Cl.Cl.Cl.[Cl-]		H37Rv		MIC bound	BACTEC	≤12.8 µg/mL
N#Cc1c(N)oc(-c2ccccc2)c1-c1ccccc1	50 µg/mL	H37Rv		inhibition	resazurin	6%
N/C(=N\N=C\c1nc2ccccc2o1)c1cnccn1				MIC		>16 µg/mL
Cc1ccc(S(=O)(=O)Nc2oc(-c3ccccc3)c(-c3ccccc3)c2C#N)cc1	50 µg/mL	H37Rv		inhibition	resazurin	9%
CCO/N=C1/C(=O)N(CCOCCOCCOCCn2c(O)c(N=O)c3ccccc32)c2ccc(C)cc21		H37Rv		MIC	visual reading	128 µg/mL
NNC(=O)c1ccncc1		H37Rv		MIC		0.025 µg/mL
O=C(NNC(=S)Nc1ccc(Br)cc1)c1ccncc1		WT		MIC		2.22 µM
COc1cccc(C(N2C(=O)C(=O)c3ccccc32)n2c(O)c(N=NC(=O)c3ccc(-n4cc(-c5ccccc5)nn4)cc3O)c3cc(Cl)ccc32)c1		H37Rv		MIC	resazurin	>25 µg/mL
CN(O)C(=O)CN1OCC(N)C1=O				MIC		>2500 µM
CO[C@H]1/C=C/O[C@@]2(C)Oc3c(C)c(O)c4c(O)c(c(/C=N/N5CCN(C)CC5)c(O)c4c3C2=O)NC(=O)/C(C)=C\C=C\[C@H](C)[C@H](O)[C@@H](C)[C@@H](O)[C@@H](C)[C@H](OC(C)=O)[C@@H]1C		SIT26		MIC	resazurin	2 µg/mL
C/C(=N\NC(=O)CNC(=O)c1ccccc1)c1ccc2ccccc2c1	12.5 µg/mL	H37Rv		inhibition	BACTEC	10%
COc1cc2c(c3c1c[n+](C)c1c4cc5c(cc4ccc31)OCO5)OCO2	12.5 µg/mL	H37Rv		inhibition	BACTEC	93%
Cc1ccc2oc(/C=N/N=C(\N)c3ccccn3)nc2c1				MIC		>16 µg/mL
O=C(N/N=C/c1ccccc1O)c1cccc2ccccc12	12.5 µg/mL	H37Rv		inhibition	BACTEC	13%
CO/N=C1/C(=O)N(CCOCCOCCOCCN2C(=O)C(=O)c3cc(F)ccc32)c2ccc(F)cc21		H37Rv		MIC	visual reading	64 µg/mL
CCCCNC(=S)NNC(=O)Cc1csc2nc(-c3ccc(Br)cc3)cn12	6.25 µg/mL	H37Rv		inhibition		0%
Cc1[nH]n(CCO)c(=O)c1N=Nc1ccc(-c2n[nH]c(=S)o2)cc1		H37Rv		EC50		>12.5 µg/mL
CCC(C)CO[C@@H]1CC(C)(C)C[C@H]2C3=CC[C@@H]4[C@]56CCC(O)(OC5)C(C)(C)[C@@H]6CC[C@@]4(C)[C@]3(C)CC[C@@]12C(=O)O		H37Rv		MIC		73 µg/mL
Cc1ccc(NC(=S)NNC(=O)c2ccncc2)c(C)c1		INH resistant		MIC		2.59 µM
CO[C@@]12[C@H](COC(N)=O)C3=C(C(=O)C(C)=C(N4CCCC4)C3=O)N1C[C@@H]1N[C@@H]12	12.5 µg/mL	H37Rv		inhibition	BACTEC	99%
CC(=O)c1ccc2oc3ccc4c(c3c2c1)CCC(C)(C)O4		H37Rv		MIC95	broth dilution / resazurin	340 µM
Cc1nc(Cl)c(C(N)=O)c(C)c1Cl		H37Rv		MIC bound	BACTEC	>12.5 µg/mL
COc1c(N2CCNC(C)C2)c(F)cc2c(=O)c(C(=O)O)cn(C3CC3)c12		H37Rv ATTC 27294		MIC90	broth dilution / resazurin	0.9 µM
CC[C@H](C)[C@@H](NC(=O)[C@@H](CCC(=O)O)NC(=O)[C@H](Cc1cnc[nH]1)NC(=O)[C@H](CC(C)C)NC(=O)[C@H](N)Cc1ccccc1)C(=O)N[C@H]1CCCCNC1=O		H37Rv		MIC	broth dilution	12.5 µg/mL
N/C(=N\N=C\c1ccncc1)c1cnccn1				MIC		>16 µg/mL
CN(C)C/C=C(/c1ccccc1)c1ccc(-c2ccc(Br)cc2)cc1		H37Ra		MIC		8 µg/mL
NC(=O)CN1OCC(N)C1=O				MIC		>2500 µM
Nc1ccc(CNC(=O)c2nc3cc(C(F)(F)F)ccc3s2)cc1		H37Rv (ATCC 27294)		MIC99		50 µg/mL
CO[C@H]1/C=C/O[C@@]2(C)Oc3c(C)c(O)c4c(O)c(c(/C=N/N5CCN(C)CC5)c(O)c4c3C2=O)NC(=O)/C(C)=C\C=C\[C@H](C)[C@H](O)[C@@H](C)[C@@H](O)[C@@H](C)[C@H](OC(C)=O)[C@@H]1C		H37Rv		MIC	resazurin	0.39 µg/mL
COc1ccc2c(c1)OC[C@@H]1c3ccc(OCc4ccccc4)cc3O[C@H]21	12.5 µg/mL	H37Rv		inhibition	BACTEC	22%
O=C(NN=Cc1c(Cl)cccc1Cl)c1ccc(-n2cc(-c3ccccc3)nn2)cc1O		H37Rv		MIC	resazurin	3.12 µg/mL
CO/N=C1/C(=O)N(CCOCCOCCOCCN2C(=O)C(=O)c3cc(F)ccc32)c2ccc(C)cc21			MDR	MIC	visual reading	128 µg/mL
Cc1c(C(=O)CC(=O)C(=O)Nc2ccc(Cl)cc2)[n+](=O)c2ccccc2n1[O-]	6.25 µg/mL	H37Rv		inhibition	resazurin	-3%
Cc1[nH][nH]c(=O)c1N=Nc1ccc(-c2n[nH]c(=O)n2-c2ccccc2)cc1		H37Rv		EC50		>12.5 µg/mL
O=C(NNC(=S)Nc1ccc(F)cc1)c1ccncc1		INH resistant		MIC		1.34 µM
CC(O)C(NCNC(=O)C1=C(O)C2(O)C(=O)C3=C(O)c4c(O)cccc4C(C)(O)C3CC2C(N(C)C)C1=O)C(=O)O	12.5 µg/mL	H37Rv		inhibition	BACTEC	0%
CN1CCN(c2c(F)cc3c(=O)c(C(=O)O)cn(CCF)c3c2F)CC1				MIC50		1.56 µg/mL
CC[C@@H](CO)NCCN[C@@H](CC)CO		H37Rv		MIC	resazurin	3.13 µg/mL
N#CCCN(C1=NN(C(=O)CC(=O)Nc2ccccc2)C(c2ccccc2)C1)c1ccccc1	12.5 µg/mL	H37Rv		inhibition	BACTEC	0%
COCN1OCC(N)C1=O				MIC		3000 µM
COc1ccc(/C=C2\N=C(c3ccco3)OC2=O)cc1Br	12.5 µg/mL	H37Rv		inhibition	BACTEC	3%
CC(=O)Nc1ccc(/C=N/NC(N)=S)cc1		H37Rv		MIC	resazurin	2.5 µg/mL

A second listing of 9 rows from above:

{"structure": "O=S1(=O)CC(N2CCCCC2)C2=C(O1)c1ccccc1N(c1ccccc1)C2", "strain": "H37Rv", "read-out": "MIC bound", "method": "BACTEC", "value": ">12.5 µg/mL"}
{"structure": "CCCCNC(=S)NNC(=O)Cc1csc2nc(-c3ccc(Br)cc3)cn12", "tested at": "6.25 µg/mL", "strain": "H37Rv", "read-out": "inhibition", "value": "0%"}
{"structure": "CC[C@H](C)[C@@H](NC(=O)[C@@H](CCC(=O)O)NC(=O)[C@H](Cc1cnc[nH]1)NC(=O)[C@H](CC(C)C)NC(=O)[C@H](N)Cc1ccccc1)C(=O)N[C@H]1CCCCNC1=O", "strain": "H37Rv", "read-out": "MIC", "method": "broth dilution", "value": "12.5 µg/mL"}
{"structure": "N#CCCN(C1=NN(C(=O)CC(=O)Nc2ccccc2)C(c2ccccc2)C1)c1ccccc1", "tested at": "12.5 µg/mL", "strain": "H37Rv", "read-out": "inhibition", "method": "BACTEC", "value": "0%"}
{"structure": "O=C(NNC(=S)Nc1ccc(Br)cc1)c1ccncc1", "strain": "WT", "read-out": "MIC", "value": "2.22 µM"}
{"structure": "COc1c(N2CCNC(C)C2)c(F)cc2c(=O)c(C(=O)O)cn(C3CC3)c12", "strain": "H37Rv ATTC 27294", "read-out": "MIC90", "method": "broth dilution / resazurin", "value": "0.9 µM"}
{"structure": "Cc1c(C(=O)CC(=O)C(=O)Nc2ccc(Cl)cc2)[n+](=O)c2ccccc2n1[O-]", "tested at": "6.25 µg/mL", "strain": "H37Rv", "read-out": "inhibition", "method": "resazurin", "value": "-3%"}
{"structure": "COc1cccc(C(N2C(=O)C(=O)c3ccccc32)n2c(O)c(N=NC(=O)c3ccc(-n4cc(-c5ccccc5)nn4)cc3O)c3cc(Cl)ccc32)c1", "strain": "H37Rv", "read-out": "MIC", "method": "resazurin", "value": ">25 µg/mL"}
{"structure": "CC1COc2c(C3(N)CC3)c(F)cc3c(=O)c(C(=O)O)cn1c23", "strain": "25 strains", "read-out": "MIC50", "value": "1.56 µg/mL"}